Replication capacity of HIV-1 mutants, Vpr

Protein: Vpr of HIV-1 NL4-3, numbered from its first residue. The source prints no sequence; the chain below is taken from UniProt P12520, a closely related isolate, and fits the source at the 71 positions it covers.
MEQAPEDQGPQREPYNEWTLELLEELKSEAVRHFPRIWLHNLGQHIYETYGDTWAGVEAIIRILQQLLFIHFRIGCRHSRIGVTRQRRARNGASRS
"Other frame" gives the effect on an overlapping gene as the source lists it; other overlaps (genes, RNA elements) are not shown.

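Random point mutant libraries of HIV-1 NL4-3, one for each of seven fragments, were passaged in CEM T lymphocytes. The RC index is the frequency of a change after passage round 2 divided by its frequency in the plasmid library.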

A higher RC index is a better tolerated change; approximate classes are lethal up to 0.1, attenuated to 0.2, tolerated above.
A change reads original residue, position, new residue.

- G9R (base G5583A, other frame Vif silent) = 0.780
- E13K (base G5595A, other frame Vif silent) = 0.371
- L23S (base T5626C) = 0.0913
- L23F (base A5627T) = 0.0421
- E24D (base G5630T) = 0.0689
- E25G (base A5632G) = 0.0479
- K27E (base A5637G) = 0.116
- S28N (base G5641A) = 0.241
- S28I (base G5641T) = 0.0752
- V31G (base T5650G) = 0.200
- H33Q (base T5657A) = 0.0364
- P35H (base C5662A) = 0.0994
- R36T (base G5665C) = 0.136
- I37L (base A5667T) = 0.0256
- N41K (base C5681A) = 0.0572
- Q44P (base A5689C) = 0.0580
- Q44H (base A5690T) = 0.0614
- H45Y (base C5691T) = 0.147
- H45L (base A5692T) = 0.0460
- I46V (base A5694G) = 0.0345
- I46S (base T5695G) = 0.167
- Y47H (base T5697C) = 0.194
- Y47C (base A5698G) = 0.0368
- E48D (base A5702T) = 0.0728
- G51R (base G5709A) = 0.304
- G51E (base G5710A) = 0.660
- D52G (base A5713G) = 0.0704
- T53N (base C5716A) = 0.0698
- V57M (base G5727A) = 0.116
- F69S (base T5764C) = 0.0986
- H71N (base C5769A) = 0.393
- R73S (base A5777T) = 0.0710
- I74V (base A5778G) = 0.0500
- I74T (base T5779C) = 0.129
- G75R (base G5781C) = 0.113
- G75W (base G5781T) = 0.305
- G75A (base G5782C) = 0.108
- H78D (base C5790G) = 0.111
- H78R (base A5791G) = 0.0673
- H78Q (base T5792A) = 0.480
- S79T (base G5794C) = 0.0754
- I81V (base A5799G) = 0.0546
- I81L (base A5799T) = 0.0348
- I81K (base T5800A) = 0.0266
- G82S (base G5802A) = 0.409
- V83A (base T5806C) = 0.111
- T84I (base C5809T) = 0.484
- Q86K (base C5814A) = 0.0894
- Q86R (base A5815G) = 0.0683
- A89T (base G5823A) = 0.253
- A89P (base G5823C) = 0.145
- N91D (base A5829G) = 0.115
- S94R (base A5838C, other frame Tat silent) = 0.637
- S94C (base A5838T, other frame Tat silent) = 0.513
- R95G (base A5841G, other frame Tat silent) = 0.149

Base changes are numbered along pNL4-3.
Since each clone held several changes (about five per kb), neutral changes can read low.
The authors read an index above 1 as above wild type (1.9% of all changes in the genome).

Reference: Al-Mawsawi et al. 2014, doi:10.1186/s12977-014-0124-6.